# Experimental data reported in ChEMBL document CHEMBL4330144, “A mitochondria-targeted organic arsenical accelerates mitochondrial metabolic disorder and function injury” (Bioorg Med Chem, 2019).
# The source made the active and inactive calls. No cut-off for these calls is given here.
# Columns and labels:
# Rattus norvegicus [1] = species on record: Rattus norvegicus; experiment: Induction of mitochondrial membrane potential loss in isolated Wistar rat mitochondria assessed as activity recovery phase rate constant at 50 uM using pyruvate as substrate up to 3 hrs by microcalorimetry; assay type: functional
# Rattus norvegicus [2] = species on record: Rattus norvegicus; experiment: Induction of mitochondrial membrane potential loss in isolated Wistar rat mitochondria assessed as activity recovery phase rate constant at 100 uM using pyruvate as substrate up to 3 hrs by microcalorimetry; assay type: functional
# Rattus norvegicus [3] = species on record: Rattus norvegicus; experiment: Induction of mitochondrial membrane potential loss in isolated Wistar rat mitochondria assessed as stationary increase phase rate constant at 50 uM using pyruvate as substrate up to 3 hrs by microcalorimetry; assay type: functional
# Rattus norvegicus [4] = species on record: Rattus norvegicus; experiment: Induction of mitochondrial membrane potential loss in isolated Wistar rat mitochondria assessed as stationary increase phase rate constant at 100 uM using pyruvate as substrate up to 3 hrs by microcalorimetry; assay type: functional
# Rattus norvegicus [5] = species on record: Rattus norvegicus; experiment: Induction of mitochondrial membrane potential loss in isolated Wistar rat mitochondria assessed as decline phase rate constant at 50 uM using pyruvate as substrate up to 3 hrs by microcalorimetry; assay type: functional
# Rattus norvegicus [6] = species on record: Rattus norvegicus; experiment: Induction of mitochondrial membrane potential loss in isolated Wistar rat mitochondria assessed as decline phase rate constant at 100 uM using pyruvate as substrate up to 3 hrs by microcalorimetry; assay type: functional
# Rattus norvegicus [7] = species on record: Rattus norvegicus; experiment: Induction of mitochondrial membrane potential loss in isolated Wistar rat mitochondria assessed as maximum power output time at 50 uM using pyruvate as substrate up to 3 hrs by microcalorimetry; assay type: functional
# Rattus norvegicus [8] = species on record: Rattus norvegicus; experiment: Induction of mitochondrial membrane potential loss in isolated Wistar rat mitochondria assessed as maximum power output time at 100 uM using pyruvate as substrate up to 3 hrs by microcalorimetry; assay type: functional
# Rattus norvegicus [9] = species on record: Rattus norvegicus; experiment: Induction of mitochondrial membrane potential loss in isolated Wistar rat mitochondria assessed as total heat output at 50 uM using pyruvate as substrate up to 3 hrs by microcalorimetry; assay type: functional
# Rattus norvegicus [10] = species on record: Rattus norvegicus; experiment: Induction of mitochondrial membrane potential loss in isolated Wistar rat mitochondria assessed as total heat output at 100 uM using pyruvate as substrate up to 3 hrs by microcalorimetry; assay type: functional
# NB-4 [11] = experiment: Induction of decrease in intracellular total thiols level in human NB4 cells up to 2.4 uM up to 24 hrs
# NB-4 [12] = experiment: Induction of ROS generation in human NB4 cells up to 2.4 uM up to 24 hrs by DHE staining based flow cytometry
# NB-4 [13] = experiment: Induction of ROS generation in human NB4 cells up to 2.4 uM up to 24 hrs by DCFH-DA staining based flow cytometry
# NB-4 [14] = experiment: Cytotoxicity against human NB4 cells assessed as reduction in cell viability up to 3.6 uM up to 8 hrs by MTT assay
# NB-4 [15] = experiment: Induction of mitochondrial membrane potential loss in human NB4 cells at 1.2 uM after 1 hr by JC1 staining based flow cytometry (reference value: 27.7%)
# NB-4 [16] = experiment: Induction of mitochondrial membrane potential loss in human NB4 cells at 1.2 uM after 3 hrs by JC1 staining based flow cytometry (reference value: 27.7%)
# NB-4 [17] = experiment: Induction of mitochondrial membrane potential loss in human NB4 cells at 1.2 uM after 6 hrs by JC1 staining based flow cytometry (reference value: 27.7%)
# NB-4 [18] = experiment: Cytotoxicity against human NB4 cells assessed as reduction in cell viability at 1.5 to 2 uM after 24 hrs in presence of DTT by trypan blue assay
# NB-4 [19] = experiment: Cytotoxicity against human NB4 cells assessed as reduction in cell viability at 1.5 to 2 uM after 24 hrs in presence of DMP by trypan blue assay
# NB-4 [20] = experiment: Cytotoxicity against human NB4 cells assessed as reduction in cell viability at 1.5 to 2 uM after 24 hrs in presence of DMSA by trypan blue assay
# NB-4 [21] = experiment: Induction of mitochondrial membrane potential loss in human NB4 cells at 0.6 to 3.6 uM after 24 hrs by JC-1 staining based confocal microscopic method
# NB-4 [22] = experiment: Cytotoxicity against human NB4 cells assessed as reduction in cell viability at 2.4 uM after 24 hrs in presence of PDHC-E2 co-enzyme LA by trypan blue assay
# NB-4 [23] = experiment: Induction of apoptosis in human NB4 cells assessed as live cells at 1.2 uM after 24 hrs by Annexin V-FITC/propidium iodide staining based flow cytometry (reference value: 92%)
# Rattus norvegicus [24] = species on record: Rattus norvegicus; experiment: Induction of inner mitochondrial membrane permeabilization in isolated Wistar rat mitochondria assessed as H+ permeabilization at 50 to 200 uM measured for 10 to 30 mins
# Rattus norvegicus [25] = species on record: Rattus norvegicus; experiment: Induction of inner mitochondrial membrane permeabilization in isolated Wistar rat mitochondria assessed as K+ permeabilization at 50 to 200 uM measured for 10 to 30 mins
# NB-4 [26] = experiment: Induction of apoptosis in human NB4 cells assessed as necrotic cells at 1.2 uM after 24 hrs by Annexin V-FITC/propidium iodide staining based flow cytometry (reference value: 0.1%)
# NB-4 [27] = experiment: Induction of apoptosis in human NB4 cells assessed as early apoptotic cells at 1.2 uM after 24 hrs by Annexin V-FITC/propidium iodide staining based flow cytometry (reference value: 5%)
# NB-4 [28] = experiment: Induction of apoptosis in human NB4 cells assessed as late apoptotic cells at 1.2 uM after 24 hrs by Annexin V-FITC/propidium iodide staining based flow cytometry (reference value: 2.9%)
# NB-4 [29] = experiment: Induction of apoptosis in human NB4 cells assessed as nuclear condensation at 1.2 to 2.4 uM after 24 hrs by Hoechst 33342/propidium iodide staining based confocal microscopic method
# NB-4 [30] = experiment: Induction of apoptosis in human NB4 cells assessed as decrease in cell size at 1.2 to 2.4 uM after 24 hrs by Hoechst 33342/propidium iodide staining based confocal microscopic method
# NB-4 [31] = experiment: Induction of apoptosis in human NB4 cells assessed as live cells at 1.2 uM after 24 hrs in presence of Nec-1 by Annexin V-FITC/propidium iodide staining based flow cytometry (reference value: 92%)
# NB-4 [32] = experiment: Induction of apoptosis in human NB4 cells assessed as necrotic cells at 1.2 uM after 24 hrs in presence of Nec-1 by Annexin V-FITC/propidium iodide staining based flow cytometry (reference value: 0.1%)
# Rattus norvegicus [33] = species on record: Rattus norvegicus; experiment: Inhibition of mitochondrial respiration in isolated Wistar rat mitochondria assessed as decrease in succinate/ADP-stimulated respiratory control ratio up to 100 uM by Clark oxygen electrode method
# NB-4 [34] = experiment: Induction of apoptosis in human NB4 cells assessed as late apoptotic cells at 1.2 uM after 24 hrs in presence of Nec-1 by Annexin V-FITC/propidium iodide staining based flow cytometry (reference value: 2.9%)
# Rattus norvegicus [35] = species on record: Rattus norvegicus; experiment: Induction of mitochondrial membrane potential loss in isolated Wistar rat mitochondria assessed as total heat output at 200 uM using pyruvate as substrate up to 3 hrs by microcalorimetry (reference value: 10.32 to 10.36 J)
# Rattus norvegicus [36] = species on record: Rattus norvegicus; experiment: Induction of mitochondrial membrane potential loss in isolated Wistar rat mitochondria assessed as maximum power output at 200 uM using pyruvate as substrate up to 3 hrs by microcalorimetry (reference value: 141.64 to 153.92 W)
# Rattus norvegicus [37] = species on record: Rattus norvegicus; experiment: Induction of mitochondrial membrane potential loss in isolated Wistar rat mitochondria assessed as maximum power output time at 200 uM using pyruvate as substrate up to 3 hrs by microcalorimetry (reference value: 45.07 to 49.89 hrs)
# Rattus norvegicus [38] = species on record: Rattus norvegicus; experiment: Induction of mitochondrial membrane potential loss in isolated Wistar rat mitochondria assessed as decline phase rate constant at 200 uM using pyruvate as substrate up to 3 hrs by microcalorimetry (reference value: -24.13 to -20.47 10^-3/min)
# Rattus norvegicus [39] = species on record: Rattus norvegicus; experiment: Induction of mitochondrial membrane potential loss in isolated Wistar rat mitochondria assessed as stationary increase phase rate constant at 200 uM using pyruvate as substrate up to 3 hrs by microcalorimetry (reference value: 1 to 1.18 10^-3/min)
# Rattus norvegicus [40] = species on record: Rattus norvegicus; experiment: Induction of mitochondrial membrane potential loss in isolated Wistar rat mitochondria assessed as activity recovery phase rate constant at 200 uM using pyruvate as substrate up to 3 hrs by microcalorimetry (reference value: 5.15 to 7.33 10^-3/min)
smiles,measurement,setting,value
Nc1ccc([As]2SCCCS2)cc1,K,Rattus norvegicus [1],4.07 ×10⁻³ /min
same,K,Rattus norvegicus [2],3.08 ×10⁻³ /min
same,K,Rattus norvegicus [3],0.19 ×10⁻³ /min
same,K,Rattus norvegicus [4],0.66 ×10⁻³ /min
same,K,Rattus norvegicus [5],-21.5 ×10⁻³ /min
same,K,Rattus norvegicus [6],-16.2 ×10⁻³ /min
same,TIME,Rattus norvegicus [7],65.2 h
same,TIME,Rattus norvegicus [8],73.2 h
same,Activity,Rattus norvegicus [9],11.6 J
same,Activity,Rattus norvegicus [10],12.2 J
same,Activity,NB-4 [11],Active
same,Activity,NB-4 [12],Active
same,Activity,NB-4 [13],Active
same,Activity,NB-4 [14],inactive
same,Activity,NB-4 [15],20.9%
same,Activity,NB-4 [16],21.5%
same,Activity,NB-4 [17],23.1%
same,Activity,NB-4 [18],inactive
same,Activity,NB-4 [19],inactive
same,Activity,NB-4 [20],inactive
same,Activity,NB-4 [21],Active
same,Activity,NB-4 [22],inactive
same,Activity,NB-4 [23],64.9%
same,Activity,Rattus norvegicus [24],inactive
same,Activity,Rattus norvegicus [25],inactive
same,Activity,NB-4 [26],1%
same,Activity,NB-4 [27],12.4%
same,Activity,NB-4 [28],21.7%
same,Activity,NB-4 [29],Active
same,Activity,NB-4 [30],Active
same,Activity,NB-4 [31],58.2%
same,Activity,NB-4 [32],1%
same,inhibition,Rattus norvegicus [33],Active
same,Activity,NB-4 [34],28.7%
same,Activity,Rattus norvegicus [35],11.4 J
same,Activity,Rattus norvegicus [36],94.7 W
same,TIME,Rattus norvegicus [37],86.4 h
same,K,Rattus norvegicus [38],-16.5 ×10⁻³ /min
same,K,Rattus norvegicus [39],0.62 ×10⁻³ /min
same,K,Rattus norvegicus [40],4.29 ×10⁻³ /min
